{
  "source": "patent US20020032307A1",
  "about": "(GENERAL HOSPITAL CORPORATION A MASSACHUSETTS, published 2002)",
  "target": "T1, p170 receptor (170 kd cell surface glycoprotein of duck hepatocytes) (duck (Pekin duck), UniProt Q90240 26-1389, glycosylated)",
  "T1 construct": "Native protein in detergent lysates of primary duck hepatocytes or duck liver; also called p170 protein; 170 kd glycoprotein",
  "T1 sequence": "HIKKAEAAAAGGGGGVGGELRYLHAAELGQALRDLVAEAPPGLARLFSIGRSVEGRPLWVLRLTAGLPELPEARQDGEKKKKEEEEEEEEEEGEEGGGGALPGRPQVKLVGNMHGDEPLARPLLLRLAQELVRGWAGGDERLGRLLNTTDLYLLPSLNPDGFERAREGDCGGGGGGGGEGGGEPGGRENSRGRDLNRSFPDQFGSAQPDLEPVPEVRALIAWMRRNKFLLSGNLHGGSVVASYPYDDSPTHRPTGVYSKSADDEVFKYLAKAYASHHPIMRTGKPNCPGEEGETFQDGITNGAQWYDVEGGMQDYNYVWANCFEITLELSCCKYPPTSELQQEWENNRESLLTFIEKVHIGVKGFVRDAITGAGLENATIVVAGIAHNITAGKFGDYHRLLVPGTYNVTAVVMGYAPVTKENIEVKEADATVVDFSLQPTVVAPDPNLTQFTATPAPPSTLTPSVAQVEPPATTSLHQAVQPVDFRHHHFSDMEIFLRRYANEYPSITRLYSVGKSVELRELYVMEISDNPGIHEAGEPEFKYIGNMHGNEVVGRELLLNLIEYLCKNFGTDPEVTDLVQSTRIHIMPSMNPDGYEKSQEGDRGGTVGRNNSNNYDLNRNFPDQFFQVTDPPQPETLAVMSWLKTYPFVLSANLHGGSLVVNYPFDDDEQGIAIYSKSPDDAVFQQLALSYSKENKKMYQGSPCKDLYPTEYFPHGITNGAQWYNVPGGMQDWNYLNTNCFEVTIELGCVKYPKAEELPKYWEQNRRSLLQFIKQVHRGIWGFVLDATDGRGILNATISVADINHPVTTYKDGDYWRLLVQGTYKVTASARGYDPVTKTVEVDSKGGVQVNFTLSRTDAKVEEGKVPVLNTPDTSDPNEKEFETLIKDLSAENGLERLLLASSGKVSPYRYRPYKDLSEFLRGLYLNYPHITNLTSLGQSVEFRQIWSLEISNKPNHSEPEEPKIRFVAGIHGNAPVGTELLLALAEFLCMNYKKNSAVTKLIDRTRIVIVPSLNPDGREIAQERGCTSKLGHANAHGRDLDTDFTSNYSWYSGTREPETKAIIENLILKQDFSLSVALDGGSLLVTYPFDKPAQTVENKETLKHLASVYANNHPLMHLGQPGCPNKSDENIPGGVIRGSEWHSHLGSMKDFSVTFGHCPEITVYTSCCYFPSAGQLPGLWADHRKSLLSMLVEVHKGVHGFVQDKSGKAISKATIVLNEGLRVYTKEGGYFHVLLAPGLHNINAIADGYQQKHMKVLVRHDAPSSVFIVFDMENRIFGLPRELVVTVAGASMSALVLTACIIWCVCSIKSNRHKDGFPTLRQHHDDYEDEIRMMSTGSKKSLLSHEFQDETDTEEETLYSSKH",
  "assay": "preclearing with Sepharose beads and GST-bound beads, 35S-labelled primary duck hepatocyte lysate, SDS-PAGE/fluorography",
  "data": [
    {"binder": "intact GST protein expressed from the pGEX 2TK expression vector (other, also called GST alone) MSPILGYWKIKGLVQPTRLLLEYLEEKYEEHLYERDEGDKWRNKKFELGLEFPNLPYYIDGDVKLTQSMAIIRYIADKHNMLGGCPKERAEISMLEGAVLDIRYGVSRIAYSKDFETLKVDFLSKLPEMLKMFEDRLCHKTYLNGDHVTHPDFMLYDALDVVLYMDPMCLDAFPKLVCFKKRIEAIPQIDKYLKSSKYIAWPLQGWQATFGGGDHPPK", "values": [
      {"measurement": "binding result", "result": "no binding"}
    ]}
  ]
}
